The values below come from patent US20140287433.

The data set deals with VAMPtide (o-Abz/Dnp) (List Biological Laboratories, Inc.).

B1: Proteinase K (Sigma-Aldrich) (protein)
chain: AAQTNAPWGLARISSTSPGTSTYYYDESAGQGSCVYVIDTGIEASHPEFEGRAQMVKTYYYSSRDGNGHGTHCAGTVGSRTYGVAKKTQLFGVKVLDDNGSGQYSTIIAGMDFVASDKNNRNCPKGVVASLSLGGGYSSSVNSAAARLQSSGVMVAVAAGNNNADARNYSPASEPSVCTVGASDRYDRRSSFSNYGSVLDIFGPGTSILSTWIGGSTRSISGTSMATPHVAGLAAYLMTLGKTTAASACRYIADTANKGDLSNIPFGTVNLLAYNNYQA
B1: the “cleavage of 200 µM VAMPtide by 100 µg/mL Proteinase K, ELISA and fluorescence” value was “Proteinase K successfully cleaved VAMPtide”.

B2: TeNT (protein)
chain: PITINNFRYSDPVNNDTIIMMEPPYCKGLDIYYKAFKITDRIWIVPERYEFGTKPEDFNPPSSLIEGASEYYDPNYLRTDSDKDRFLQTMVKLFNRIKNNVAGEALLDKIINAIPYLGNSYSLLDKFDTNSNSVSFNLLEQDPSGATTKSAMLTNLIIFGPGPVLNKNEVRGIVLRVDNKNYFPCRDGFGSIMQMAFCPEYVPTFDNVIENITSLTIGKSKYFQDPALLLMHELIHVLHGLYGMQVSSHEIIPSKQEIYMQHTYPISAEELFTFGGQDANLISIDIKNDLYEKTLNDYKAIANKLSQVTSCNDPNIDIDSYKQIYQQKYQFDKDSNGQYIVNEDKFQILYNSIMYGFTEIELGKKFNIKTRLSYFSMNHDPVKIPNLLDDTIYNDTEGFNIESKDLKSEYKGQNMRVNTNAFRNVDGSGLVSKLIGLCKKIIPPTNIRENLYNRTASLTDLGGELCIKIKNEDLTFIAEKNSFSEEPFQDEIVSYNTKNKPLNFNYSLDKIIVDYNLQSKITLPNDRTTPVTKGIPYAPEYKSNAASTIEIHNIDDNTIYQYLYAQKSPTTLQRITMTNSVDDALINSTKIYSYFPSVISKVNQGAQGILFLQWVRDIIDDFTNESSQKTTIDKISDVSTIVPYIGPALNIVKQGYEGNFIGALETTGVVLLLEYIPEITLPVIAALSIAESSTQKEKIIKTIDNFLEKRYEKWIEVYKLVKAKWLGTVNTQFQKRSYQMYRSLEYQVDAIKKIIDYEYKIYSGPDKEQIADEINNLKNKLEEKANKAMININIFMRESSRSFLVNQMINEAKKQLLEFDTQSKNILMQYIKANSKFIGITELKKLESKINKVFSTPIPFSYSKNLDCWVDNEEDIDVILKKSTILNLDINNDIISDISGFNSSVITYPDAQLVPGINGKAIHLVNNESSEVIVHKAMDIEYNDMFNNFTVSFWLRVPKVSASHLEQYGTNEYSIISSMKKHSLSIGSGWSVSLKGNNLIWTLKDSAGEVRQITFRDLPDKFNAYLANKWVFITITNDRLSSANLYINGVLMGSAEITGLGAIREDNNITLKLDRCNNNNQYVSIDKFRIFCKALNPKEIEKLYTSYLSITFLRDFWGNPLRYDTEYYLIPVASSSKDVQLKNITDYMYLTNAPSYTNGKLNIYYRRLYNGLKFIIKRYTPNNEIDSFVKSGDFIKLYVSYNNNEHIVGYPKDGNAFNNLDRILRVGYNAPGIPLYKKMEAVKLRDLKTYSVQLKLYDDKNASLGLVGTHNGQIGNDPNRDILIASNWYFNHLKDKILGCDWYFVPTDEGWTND
Turning to B2, the “cleavage activity in the modified cleavage buffer” value is recorded as “the cleavage reaction did neither work for TeNT”.

B3: isolated BoNT/B LC (residues 1-441) (protein)
chain: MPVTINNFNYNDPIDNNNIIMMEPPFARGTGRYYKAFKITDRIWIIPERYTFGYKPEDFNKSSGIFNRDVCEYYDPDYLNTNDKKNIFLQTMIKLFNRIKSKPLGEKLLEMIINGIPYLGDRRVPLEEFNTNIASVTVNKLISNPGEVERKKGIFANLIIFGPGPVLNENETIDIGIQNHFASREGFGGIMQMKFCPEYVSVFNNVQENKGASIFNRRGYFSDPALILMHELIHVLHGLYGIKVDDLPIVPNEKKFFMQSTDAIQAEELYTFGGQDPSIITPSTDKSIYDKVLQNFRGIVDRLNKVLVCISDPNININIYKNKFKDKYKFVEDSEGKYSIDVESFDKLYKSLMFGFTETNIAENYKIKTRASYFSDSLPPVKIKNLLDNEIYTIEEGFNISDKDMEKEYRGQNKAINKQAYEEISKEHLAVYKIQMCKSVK
Consider B3, for which the “cleavage activity in the modified cleavage buffer (2 mM TCEP, no Tween-20)” value is “isolated BoNT/B LC did not exhibit any cleavage activity under these conditions”.
